Earlier results as cited in US9340590B2 (priority 2011, dated 2016).
pIC50: −log10 of the molar value.

Sequences of proteins named here, by UniProt entry; tags and fusion partners are left off.
UniProt P04775, whole entry, looked up: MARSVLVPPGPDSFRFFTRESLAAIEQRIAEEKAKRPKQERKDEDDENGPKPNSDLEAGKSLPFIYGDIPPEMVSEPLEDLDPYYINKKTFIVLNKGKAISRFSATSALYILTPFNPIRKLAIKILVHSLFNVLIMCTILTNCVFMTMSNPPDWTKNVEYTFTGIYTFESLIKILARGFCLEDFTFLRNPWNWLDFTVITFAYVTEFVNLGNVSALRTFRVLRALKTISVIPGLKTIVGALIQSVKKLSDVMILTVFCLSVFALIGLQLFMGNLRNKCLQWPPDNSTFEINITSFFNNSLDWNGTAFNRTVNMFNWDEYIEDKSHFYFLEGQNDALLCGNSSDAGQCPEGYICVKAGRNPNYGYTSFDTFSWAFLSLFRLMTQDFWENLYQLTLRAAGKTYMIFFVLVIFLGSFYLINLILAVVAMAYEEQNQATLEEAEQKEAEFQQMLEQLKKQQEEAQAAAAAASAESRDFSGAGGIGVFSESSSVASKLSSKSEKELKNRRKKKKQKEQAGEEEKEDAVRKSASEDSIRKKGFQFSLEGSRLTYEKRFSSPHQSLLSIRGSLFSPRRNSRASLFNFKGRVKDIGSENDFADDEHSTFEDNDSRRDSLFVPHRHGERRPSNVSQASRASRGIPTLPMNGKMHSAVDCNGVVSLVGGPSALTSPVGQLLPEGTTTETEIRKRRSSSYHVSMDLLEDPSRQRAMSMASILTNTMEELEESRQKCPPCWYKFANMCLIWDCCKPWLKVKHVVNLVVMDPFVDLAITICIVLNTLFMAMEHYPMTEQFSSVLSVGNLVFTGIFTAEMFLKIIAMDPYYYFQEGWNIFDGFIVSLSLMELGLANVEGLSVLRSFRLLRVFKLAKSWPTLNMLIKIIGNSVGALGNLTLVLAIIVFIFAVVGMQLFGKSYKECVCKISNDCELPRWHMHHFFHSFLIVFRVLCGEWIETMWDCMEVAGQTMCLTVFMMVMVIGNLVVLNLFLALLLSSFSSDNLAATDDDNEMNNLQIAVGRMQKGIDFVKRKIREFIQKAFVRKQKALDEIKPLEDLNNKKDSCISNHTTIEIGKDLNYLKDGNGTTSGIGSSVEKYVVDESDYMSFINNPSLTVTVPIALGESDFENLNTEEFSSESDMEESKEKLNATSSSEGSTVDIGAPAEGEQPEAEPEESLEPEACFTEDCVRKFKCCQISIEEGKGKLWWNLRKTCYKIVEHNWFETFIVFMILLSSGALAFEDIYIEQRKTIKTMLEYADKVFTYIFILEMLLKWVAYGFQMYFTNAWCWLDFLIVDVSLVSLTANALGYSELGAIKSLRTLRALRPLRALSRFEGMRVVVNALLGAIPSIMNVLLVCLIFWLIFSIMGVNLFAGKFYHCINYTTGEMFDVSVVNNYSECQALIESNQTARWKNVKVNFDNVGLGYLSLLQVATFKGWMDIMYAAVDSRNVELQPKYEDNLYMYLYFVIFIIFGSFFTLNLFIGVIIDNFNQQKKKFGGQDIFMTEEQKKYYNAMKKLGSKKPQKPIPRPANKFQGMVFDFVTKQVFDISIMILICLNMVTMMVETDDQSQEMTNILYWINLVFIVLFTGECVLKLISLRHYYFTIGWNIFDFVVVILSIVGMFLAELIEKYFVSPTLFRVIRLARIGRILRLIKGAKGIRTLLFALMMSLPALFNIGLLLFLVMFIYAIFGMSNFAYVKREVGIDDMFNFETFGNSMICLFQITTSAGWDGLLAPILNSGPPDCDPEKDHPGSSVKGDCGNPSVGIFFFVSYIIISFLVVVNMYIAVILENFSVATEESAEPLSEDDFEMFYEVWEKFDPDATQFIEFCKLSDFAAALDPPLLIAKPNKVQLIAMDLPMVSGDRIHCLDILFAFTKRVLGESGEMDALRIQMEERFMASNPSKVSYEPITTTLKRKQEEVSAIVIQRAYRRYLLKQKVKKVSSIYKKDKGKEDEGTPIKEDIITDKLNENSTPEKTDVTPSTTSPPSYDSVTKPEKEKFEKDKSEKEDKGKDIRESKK

Columns and labels:
[1] = biological target: Nav1.2 (Rattus norvegicus, UniProt P04775); details: read-out: TTX IC50; cited from earlier work
[2] = biological target: Nav1.1 (Rattus norvegicus, UniProt P04774); details: read-out: TTX IC50; cited from earlier work

## NC1=N[C@H](O)[C@H]2[C@H]3O[C@]4(O)O[C@@H]([C@@H](O)[C@@]2(N1)[C@@H]4O)[C@]3(O)CO [TTX, tetrodotoxin]
[1]
  pIC50: 8.00
[2]
  pIC50: 8.00
